Converted amounts (≈) assume the structure as drawn. Where a name gives a salt, the structure may show the parent alone.
Tested on: B. fragilis WS-1
Experiment: Anti-anaerobic activity, microtitre plate broth dilution, strain E
Assay type: cell-based
Details: Bacteroides fragilis, WS1, 48 h, 99.9% reduction in viable count, read-out: MBC (Minimum Bactericidal Concentration)

Going from `CCCCCCCC(=O)C(Cn1ccnc1)c1ccc(C)cc1` (stereo not drawn) [Example 17, 1-(Imidazol-1-yl)-2-(4-methylphenyl)decan-3-one hydrochloride] to `Cc1ccc(C(Cn2ccnc2)C(=O)c2ccc(Cl)cc2Cl)cc1` (stereo not drawn) [Example 15, 1-(2,4-Dichlorophenyl)-3-(imidazol-1-yl)-2-(4-methylphenyl) propan-1-one], the MBC falls from 100 µg/mL to 0.8 µg/mL (≈ 2.23 µM) (120-fold).

`O=C(c1ccc(Cl)cc1Cl)C(Cn1ccnc1)c1ccccc1` (stereo not drawn) [Example 2, 1-(2,4-Dichlorophenyl)-3-(imidazol-1-yl)-2-phenylpropan-1-one] and `O=C(c1ccc(Cl)cc1Cl)C(Cn1cncn1)c1ccccc1` (stereo not drawn) [Example 23, 1-(2,4-Dichlorophenyl)-2-phenyl-3-(1,2,4-triazol-1-yl) propan-1-one] are the same in MBC: 0.8 µg/mL (≈ 2.32 µM) for the first, 0.8 µg/mL (≈ 2.31 µM) for the second.

Compared with `O=C(c1cc(Cl)cc(Cl)c1)C(Cn1ccnc1)c1ccccc1` (stereo not drawn) [Example 18, 1-(3,5-Dichlorophenyl)-3-(imidazol-1yl)-2-phenyl propan-1-one], `O=C(c1cccnc1)C(Cn1ccnc1)c1ccccc1` (stereo not drawn) [Example 19, 3-(Imidazol-1-yl)-2-phenyl-1-(3-pyridyl)propan-1-one] is 2-fold higher in MBC: 12.5 µg/mL (≈ 36.2 µM) for the first, 25 µg/mL (≈ 90.1 µM) for the second.

Compared with `O=C(c1ccccn1)C(Cn1ccnc1)c1ccccc1` (stereo not drawn) [Example 21, 3-(Imidazol-1-yl)-2-phenyl-1-(2-pyridyl)propan-1-one], `CSc1nccn1CC(C(=O)c1ccc(Cl)cc1Cl)c1ccccc1` (stereo not drawn) [Example 24, 1-(2,4-Dichlorophenyl)-2-phenyl-3-(2-thiomethylimidazol-1-yl)propan-1-one] is 4-fold higher in MBC: 25 µg/mL (≈ 90.1 µM) for the first, 100 µg/mL (≈ 256 µM) for the second.

`Cc1ccc(C(Cn2cncn2)C(=O)c2ccc(Cl)cc2Cl)cc1` (stereo not drawn) [Example 16, 1-(2,4-Dichlorophenyl)-2-(4-methylphenyl)-3-(1,2,4-triazol-1-yl)propan-1-one hydrochloride] showed an MBC of 3.1 µg/mL.
